PubChem BioAssay AID1259414, Drosophila RNAi Screening Center | 2018
The deposit covers about 24,000 reagents; this is an unselected part of those that have a named target and a result. Over the whole deposit, about 1,210 (5%) were called active. 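Inactive calls also include excluded dsRNAs with several or no targets, genes unexpressed in JW18, and well A1, regardless of score.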 A number with no mark means an inactive call. The numbers tell different reagents against one gene apart. Names joined by + are all predicted targets of the reagent.

Purpose: 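Fly genes that alter Wolbachia amount inside host cells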 (primary screen)
Cells: Drosophila JW18 cells infected with Wolbachia
Reagents: long dsRNA against Drosophila genes, 0.25 µg dsRNA per well of a 384-well plate
Timing: 5 days
Treatment: cells persistently infected with Wolbachia before knock-down; no added drug
Read-out: 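Imaged fluorescence in situ signal for Wolbachia 23S rRNA per DAPI-counted host cell, given as a robust z-score within each plate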
Reading the numbers: Wolbachia per cell robust z: higher = more Wolbachia per host cell than the plate typical
Active means: 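Active if absolute robust z reaches 1.5 in two or more of three replicates, leaving out multi- or no-target dsRNAs, genes unexpressed in JW18 and A1 wells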

no.	gene	dsRNA no.	Wolbachia per cell robust z, rep 1	Wolbachia per cell robust z, rep 2	Wolbachia per cell robust z, rep 3
1	Obp58c	1	-0.15	-0.0499	0.476
2	CG18870	1	0.544	0.159	-0.0736
3	CG11454	1	1.38	1.23	1.68
4	CG11454	2	1.1	0.405	0.425
5	CG14983	1	-0.816	-1.13	-1.65
6	CG14983	2	0.352	0.433	1.95
7	Ranbp21	1	-0.597	-1.2	0.918
8	apn	1	1.03	-0.281	0.778
9	CG14618	1	0.312	0.199	0.133
10	CG31827 + CG18478	1	0.554	-4.73	1.15
11	CG13531	1	-0.464	-2.63	-0.942
12	CG13978	1	-2.17	-0.561	0.57
13	Pp1alpha-96A	1	-0.487	-2.92	0.398
14	Pp1alpha-96A	2	0.965	0.277	0.448
15	Pp1alpha-96A	3	-0.752	0.999	-0.732
16	mRpL1	1	0.799	1.29	0.231
17	CG2938	1	-0.233	-1.9	2.03
18	CG2938	2	-1.08	-1	-0.375
19	ric8b + ric8a	1	0.607	0.466	0.481
20	Rbcn-3A	1	-0.33	-0.464	0.204
21	Rbcn-3A	2	-0.457	-0.737	0.153
22	Cbp80	1	-0.543	0.0424	-0.965
23	GILT2	1	-0.0532	-0.178	-2.18
24	CG8586	1	0.869	1.08	-0.0593
25	CG8197	1	-0.543	1.06	0.691
26	side-IV + asRNA:CR17025	1	-2.22	-3.43	-3.15
27	Fkbp12	1	0.679 (active)	-3.69	-2.34
28	Spt-I	1	0.667	-1.69	0.903
29	Spt-I	2	0.564	0.523	0.599
30	prtp	1	-2.48	-1.18	0.212
31	prtp	2	0.33	-0.261	-0.207
32	Argk2	1	-0.794	-0.462	-0.685
33	Argk2	2	-2.6 (active)	0.259	-3.94
34	Argk2	3	-1.81	-0.581	-0.363
35	wor	1	0.564	1.38	-1.12
36	wor	2	0.374	-1.17	-0.154
37	Dnali1	1	-1.14	-1.39	-1.81
38	CG8508	1	0.684	-1.65	-0.435
39	tin	1	-0.313	0.485	-5.16
40	tin	2	0.292	0.243	-0.244
41	tin	3	-0.028	-0.277	0.635
42	CG8128	1	-2.06	0.59	-0.754
43	CG17376	1	-1.75	-1.19	-1.46
44	Cep290	1	-3.02	0.786	1.08
45	Cep290	2	0.13	0.657	-1.26
46	NimC3	1	0.388	-0.0226	0.204
47	NimC3	2	-0.819	0.558	0.2
48	NimC3	3	0.023	-0.000813	-0.432
49	Tsp42En	1	-0.804	0.59	-1.05
50	Inx2	1	0.103	0.322	-0.175
51	Inx2	2	-0.136	-10.1	-1.13
52	CG30148	1	1.03	0.843	0.783
53	hpRNA:CR32205	1	-0.676	0.218	-0.602
54	hpRNA:CR32205	2	-0.764	-0.934	-0.759
55	hpRNA:CR32205	3	-0.532	0.347	0.642
56	CG3491	1	0.363	0.117	-0.218
57	COX7B	1	-3.77 (active)	-2.5	-0.336
58	fusl	1	-1.14	-7.48	-0.552
59	fusl	2	1.77	0.384	0.191
60	CG1598	1	-1.07	-1.01	-0.866
61	CG2104	1	0.79	-0.0193	-1.16
62	CG2104	2	1.3	0.863	0.632
63	CG14537	1	-8.5	-0.526	-0.231
64	her	1	-7.24 (active)	-0.227	-3.59
65	CG31926	1	0.972	-0.7	0.301
66	CG31926	2	-0.375	0.338	-0.175
67	rump	1	0.653	-1.07	0.865
68	CG8252	1	1.08	-1.94	0.705
69	CG8252	2	-2.32	0.798	0.556

Records above with an active call, once more:
gene	dsRNA no.	Wolbachia per cell robust z, rep 1	Wolbachia per cell robust z, rep 2	Wolbachia per cell robust z, rep 3
Fkbp12	1	0.679 (active)	-3.69	-2.34
Argk2	2	-2.6 (active)	0.259	-3.94
COX7B	1	-3.77 (active)	-2.5	-0.336
her	1	-7.24 (active)	-0.227	-3.59
